Measured values published in patent US6676950B2, “Neurokinin receptor antagonists and methods of use thereof for inhibiting HIV infection” (The Children's Hospital of Philadelphia, priority 2001, dated 2004).

Chains of the proteins cited; added tags and fusions are not shown.
UniProt P25103, whole entry: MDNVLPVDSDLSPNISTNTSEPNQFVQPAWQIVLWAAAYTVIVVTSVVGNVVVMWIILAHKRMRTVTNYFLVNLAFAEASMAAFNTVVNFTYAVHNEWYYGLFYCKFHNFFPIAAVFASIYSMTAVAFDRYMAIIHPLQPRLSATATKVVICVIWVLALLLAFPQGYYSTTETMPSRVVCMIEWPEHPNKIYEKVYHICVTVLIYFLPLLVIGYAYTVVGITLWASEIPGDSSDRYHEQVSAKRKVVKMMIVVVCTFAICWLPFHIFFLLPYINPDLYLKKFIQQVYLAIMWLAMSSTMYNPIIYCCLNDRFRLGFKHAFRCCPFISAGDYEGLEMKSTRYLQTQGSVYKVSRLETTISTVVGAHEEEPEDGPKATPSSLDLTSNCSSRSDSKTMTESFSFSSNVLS

Molecular target: Neurokinin-1 receptor (NK-1R) (human) (UniProt P25103)
Experiment: cell-based or functional assay

Substance: Substance P (SP) (from UniProt P20366 58-68) (peptide)
- HIV RT activity in HIV Bal-infected MDM, SP at 10^-6M: 58%
- HIV RT activity in HIV Bal-infected MDM, SP at 10^-8M: 40%
- HIV RT activity in HIV Bal-infected MDM, SP at 10^-10M: 14%
